Results of unrelated studies side by side (data: NIAID ChemDB).

Shared fields: growth or infection tests; agent: HIV-1; measure: EC90

Blank or dashed fields: not listed here. ECn is the concentration giving n% inhibition of infection, replication or growth. Rows are shuffled and stem from different studies.

smiles | changes | strain | setting | cell line | method | value
O=C1N(Cc2ccccc2)[C@H](CC2CCCCC2)[C@H](O)[C@@H](O)[C@@H](CC2CCCCC2)N1Cc1ccccc1 |  | RF |  | MT-2 | hybridisation | >10 µM
Nc1nc2c(ncn2[C@H]2C=C[C@@H](CO)O2)c(=O)[nH]1 |  | LAI |  | PBMC | cytopathic effect / MTT | 3.4 µM
Nc1ccn([C@H]2O[C@@H](CO)C=C2F)c(=O)n1 | RT-M184V | 3TC-resistant (RT M184V) |  | PBMC |  | >100 µM
Cc1cn([C@H]2C[C@H](N=[N+]=[N-])[C@@H](CO)O2)c(=O)[nH]c1=O |  | LAV |  | H9 | RT activity | 0.3 µM
Nc1nc(NC2CC2)c2ncn([C@H]3C=C[C@@H](CO)O3)c2n1 | RT-K65R | BRU PITT.(RT-K65R) |  | PBMC | cytopathic effect / MTT | >100 µM
CCNC1=CC(=O)C=C(C[C@]2(C)C(C)CCC3(C)C(C)=CCCC32)C1=O |  | IIIB |  | C8166 | syncytia | >2.5 µM
Nc1ncnc2c1ncn2CCOCP(=O)(O)O |  | LAV |  | H9 | RT activity | 8 µM
CC(C)[C@H](NC(=O)Cc1ccccn1)C(=O)N[C@@H](Cc1ccccc1)[C@@H](O)[C@H](O)[C@H](Cc1ccccc1)NC(=O)[C@@H](NC(=O)Cc1ccccn1)C(C)C |  | RF |  | MT-2 | plaque count / virus yield | 1.3 µg/mL
Cc1cn([C@H]2C[C@H](N=[N+]=[N-])[C@@H](CO)O2)c(=O)[nH]c1=O |  | RF |  | C8166 | cytopathic effect | 1 µg/mL
CC(C)CN(C[C@@H](O)[C@H](Cc1ccccc1)NC(=O)[C@@H](NC(=O)CNCc1cccc(F)c1)C(C)(C)C)S(=O)(=O)c1ccc(N)cc1 |  | RF |  | MT-2 | virus yield | 0.0078 µM
CSCC[C@@H]1[C@H](O)[C@@H](O)[C@@H](CCSC)N(Cc2ccccc2)C(=O)N1Cc1ccccc1 |  | RF |  | MT-2 | hybridisation | >10 µM
CC1=CCCC2C1(C)CCC(C)[C@@]2(C)CC1=CC(=O)C(NC(CS(=O)(=O)O)C(=O)O)=CC1=O |  | IIIB |  | C8166 | syncytia | 1 µM
CC(C)(C)NC(=O)[C@@H]1CN(Cc2cccnc2)CCN1C[C@@H](O)C[C@@H](Cc1ccccc1)C(=O)N[C@H]1c2ccccc2C[C@H]1O | PR-L10I K20R M36I/V P63L/S L90M | BR59 (PR L10I K20R M36I/V P63L/S L90M) |  | PBMC | p24 | 0.015 µM
CC(C)CN(C[C@@H](O)[C@H](Cc1ccccc1)NC(=O)O[C@H]1CCOC1)S(=O)(=O)c1ccc(N)cc1 |  |  |  | CEM | RT activity | 0.04 µg/mL
COc1ccccc1C[C@@H]1[C@H](O)[C@@H](O)[C@@H](Cc2ccccc2OC)N(CC2CC2)C(=O)N1CC1CC1 |  | RF |  | MT-2 | hybridisation | >10 µM
Cc1cn([C@H]2C[C@H](N=[N+]=[N-])[C@@H](CO)O2)c(=O)[nH]c1=O | RT-M184V | 3TC-resistant (RT M184V) |  | PBMC |  | 0.003 µM
CC[C@H]1OC(=O)[C@H](C)[C@@H](O[C@H]2C[C@@](C)(OC)[C@@H](O)[C@H](C)O2)[C@H](C)[C@@H](O[C@@H]2O[C@H](C)C[C@H](N(C)C)[C@H]2O)[C@](C)(OC)C[C@@H](C)C(=O)[C@H](C)[C@@H](O)[C@]1(C)O |  | LAV |  | PBMC | RT activity | >600 µM
CC1=CCCC2C1(C)CCC(C)[C@@]2(C)CC1=CC(=O)C(NC(CC(C)C)C(=O)O)=CC1=O |  | IIIB |  | C8166 | syncytia | 1.1 µM
NC(=O)c1nn([C@@H]2O[C@H](CO)[C@@H](O)[C@H]2O)cc1N |  | IIIB |  | C8166 | syncytia | >1840 µM
CC(C)(C)NC(=O)[C@@H]1C[C@@H]2CCCC[C@@H]2CN1C[C@@H](O)[C@H](Cc1ccccc1)NC(=O)[C@H](CC(N)=O)NC(=O)c1ccc2ccccc2n1 |  | RF |  | MT-2 | plaque count / virus yield | 0.004 µg/mL
Cc1c(O)cccc1C(=O)N[C@@H](CSc1ccccc1)[C@H](O)CN1C[C@H]2CCCC[C@H]2C[C@H]1C(=O)NC(C)(C)C | PR-M46I L63P A71V V82F I84V | HXB2 |  | PBMC | p24 | 0.45 µM
Cc1cn([C@H]2C[C@H](N=[N+]=[N-])[C@@H](CO)O2)c(=O)[nH]c1=O | K65R |  |  | Primary T lymphocytes | p24 / ELISA | 0.3 µM
CCn1nc(Cc2cccc(F)c2)cc1C1CCN(C[C@H]2CN([C@@H](C(=O)O)C3CCCCC3)C[C@@H]2c2cccc(F)c2)CC1 |  | BaL |  | HeLa | β-galactosidase | <0.00014 µM
CCN(c1ncccc1NC(C)(C)C)C1CCN(C(=O)c2cc3cc(NS(C)(=O)=O)ccc3[nH]2)CC1 |  | IIIB |  | MT-4 | p24 | 0.004 µM
O=C(O)c1ccccc1CCCC1(O)CCN(C[C@H]2CN(CC3CCCCC3)C[C@@H]2c2ccccc2)CC1 |  | BaL |  | HeLa | β-galactosidase | >1 µM
CC(C)c1ccc(C[C@@H]2[C@H](O)[C@@H](O)[C@@H](Cc3ccc(C(C)C)cc3)N(Cc3ccccc3)C(=O)N2Cc2ccccc2)cc1 |  | RF |  | MT-2 | hybridisation | >10 µM
CCOc1cccc(Cc2cc(C3CCN(C[C@H]4CN([C@@H](C(=O)O)[C@@H](C)CC)C[C@@H]4c4cccc(F)c4)CC3)n(CC)n2)c1 |  | BaL |  | HeLa | β-galactosidase | <0.00014 µM
CC[C@H](C)[C@H](NC(=O)Cc1ccccn1)C(=O)N[C@@H](Cc1ccccc1)[C@@H](O)[C@H](O)[C@H](Cc1ccccc1)NC(=O)[C@@H](NC(=O)Cc1ccccn1)[C@@H](C)CC |  | Clinical isolate E |  | MT-2 | plaque count / virus yield | 0.95 µg/mL
CC1=CCC[C@H]2[C@](C)(Cc3cc(O)ccc3O)[C@@H](C)CC[C@]12C |  | IIIB |  | C8166 | syncytia | 2.9 µM
COCCNC(=O)[C@@H](NC(=O)[C@H](Cc1ccc(OC)c(OC)c1OC)C[C@H](O)[C@H](Cc1ccccc1)NC(=O)OC(C)(C)C)C(C)C |  | MN |  | MT-2 | RT activity | 0.029 µM
CCCCCCCCCCCCCCC[C@@H](O)[C@@H](N)CO |  | HXB2 |  | TZM-bl | luciferase | >6 µM
O=C1Nc2ccc(Cl)cc2[C@@](C#CC2CC2)(C(F)(F)F)O1 | K65R |  |  | Primary T lymphocytes | p24 / ELISA | 0.02 µM
O=C1N(Cc2ccccc2)[C@H](CCc2ccccc2)[C@H](O)[C@@H](O)[C@@H](CCc2ccccc2)N1Cc1ccccc1 |  | RF |  | MT-2 | hybridisation | >10 µM
CC1=CCCC2C1(C)CCC(C)[C@@]2(C)CC1=CC(=O)C(NC(CO)C(=O)O)=CC1=O |  | IIIB |  | C8166 | syncytia | >23.5 µM
O=C1N[C@H](Cc2ccccc2)[C@H](O)CN(Cc2ccccc2)[C@H]1Cc1ccccc1 |  | IIIB |  | MT-2 | XTT | ≤10 µg/mL
CSCC[C@@H]1[C@H](O)[C@@H](O)[C@@H](CCSC)N(Cc2ccc(CO)cc2)C(=O)N1Cc1ccc(CO)cc1 |  | RF |  | MT-2 | hybridisation | >10 µM
CCn1nc(Cc2ccccc2F)cc1C1CCN(C[C@H]2CN([C@@H](C(=O)O)C(C)C)C[C@@H]2c2cccc(F)c2)CC1 |  | BaL | 50% human serum | HeLa | β-galactosidase | >0.3 µM
Cc1cn([C@H]2C[C@H](N=[N+]=[N-])[C@@H](CO)O2)c(=O)[nH]c1=O |  | Isolate 458 |  | PBMC | p24 | 0.3 µM
CC(C)c1nc(CN(C)C(=O)N[C@H](C(=O)N[C@@H](Cc2ccccc2)C[C@H](O)[C@H](Cc2ccccc2)NC(=O)OCc2cncs2)C(C)C)cs1 |  | LAI |  | PBL | RT activity | 0.051 µM
O=C1N(Cc2ccc(CO)cc2)[C@H](CC2CCCCC2)[C@H](O)[C@@H](O)[C@@H](CC2CCCCC2)N1Cc1ccc(CO)cc1 |  | RF |  | MT-2 | hybridisation | >10 µM
CC[C@H](C)[C@H](NC(=O)Cc1ccccn1)C(=O)N[C@@H](Cc1ccccc1)[C@@H](O)[C@H](O)[C@H](Cc1ccccc1)NC(=O)[C@@H](NC(=O)Cc1ccccn1)[C@@H](C)CC |  | RF |  | MT-2 | plaque count / virus yield | 0.9 µg/mL
CCOc1ccc(Cc2cc(C3CCN(C[C@H]4CN([C@@H](C(=O)O)C(C)C)C[C@@H]4c4cccc(F)c4)CC3)n(CC)n2)cc1F |  | BaL |  | HeLa | β-galactosidase | <0.00014 µM
CC1=CCC[C@H]2[C@](C)(CC3=CC(=O)C=CC3=O)[C@@H](C)CC[C@]12C |  | IIIB |  | C8166 | syncytia | 1.5 µM

Again, the opening 4 rows:

smiles	changes	strain	setting	cell line	method	value
O=C1N(Cc2ccccc2)[C@H](CC2CCCCC2)[C@H](O)[C@@H](O)[C@@H](CC2CCCCC2)N1Cc1ccccc1		RF		MT-2	hybridisation	>10 µM
Nc1nc2c(ncn2[C@H]2C=C[C@@H](CO)O2)c(=O)[nH]1		LAI		PBMC	cytopathic effect / MTT	3.4 µM
Nc1ccn([C@H]2O[C@@H](CO)C=C2F)c(=O)n1	RT-M184V	3TC-resistant (RT M184V)		PBMC		>100 µM
Cc1cn([C@H]2C[C@H](N=[N+]=[N-])[C@@H](CO)O2)c(=O)[nH]c1=O		LAV		H9	RT activity	0.3 µM